Drawing on US5688767A, “Treatment of endotoxin-associated disorders with cationic peptides” (priority 1996, dated 1997), this text covers MIC for one molecule.

Values after ≈ are worked out from the molar mass of the structure shown.

In one assay the test system is E. coli. Format: cell-based, Escherichia coli. Particulars: strain SC9252, Polymyxin resistant. Here is the method:
(§1) The minimum inhibitory concentrations of (MIC) of CEME, CEMA and melittin were determined for a number of different bacteria (Table 2). Briefly, cells were grown overnight at 37° C. in LB-S (Luria broth without any salt supplement) and diluted one in 10,000 in the same medium to give concentrations of about 10^4 to 10^5 CFU/ml. The broth dilutions were set up in a 96 well microtiter plate by putting 200 μl of LB-S containing the initial concentration of antibiotic or compound in column 1 and 100 μl of the same medium in columns 2-12. The compounds were diluted by taking 100 μl of broth from column 1 and mixing it with column 2, resulting in a one in two dilution. This was continued to column 10. Finally, 10 μl of bacteria were pipetted into columns 1-11, and the plates incubated overnight at 37° C. The next day the plates were scored for growth in the wells, and the MIC determined.
(§2) Bacteria included the Bort strain of E. coli (Bortolussi, et al., Inf. Immun., 25:293, 1979) that was originally derived from a case of neonatal meningitis, and which is therefore considered a relevant pathogenic strain to study, and the 0111:B4 strain of E. coli (kindly provided by Dr. D. Morrison) which is a standard source of endotoxin. (Kelly, et al., Inf. Immun., 59:4491, 1991). […]

Another assay concerns E. cloacae. Format: cell-based, Enterobacter cloacae. Particulars: strain 218R1, β-lactam resistant. As to the method:
as §1, §2

Broadly, the MIC is the lowest concentration found to suppress growth. Low readings indicate inhibition by little substance, high ones a need for much substance. Take `CC[C@H](C)[C@H](NC(=O)CN)C(=O)NCC(=O)N[C@@H](C)C(=O)N[C@H](C(=O)N[C@@H](CC(C)C)C(=O)N[C@@H](CCCCN)C(=O)N[C@H](C(=O)N[C@@H](CC(C)C)C(=O)N[C@H](C(=O)N[C@H](C(=O)NCC(=O)N[C@@H](CC(C)C)C(=O)N1CCC[C@H]1C(=O)N[C@@H](C)C(=O)N[C@@H](CC(C)C)C(=O)N[C@H](C(=O)N[C@@H](CO)C(=O)N[C@@H](Cc1c[nH]c2ccccc12)C(=O)N[C@H](C(=O)N[C@@H](CCCCN)C(=O)N[C@@H](CCCNC(=N)N)C(=O)N[C@@H](CCCCN)C(=O)N[C@@H](CCCNC(=N)N)C(=O)N[C@@H](CCC(N)=O)C(=O)N[C@@H](CCC(N)=O)C(N)=O)[C@@H](C)CC)[C@@H](C)CC)[C@@H](C)O)[C@@H](C)O)C(C)C)C(C)C` [Melittin, melittin]: the MIC against E. coli and against E. cloacae was 8 µg/mL (≈ 2.81 µM) in each case.
